The exact form of at least one protein or probe is not confirmed.

Sequences of proteins named here, by UniProt entry; tags and fusion partners are left off. A change or cut given only in a name is not applied to a line headed by its entry.
UniProt P9WGL9: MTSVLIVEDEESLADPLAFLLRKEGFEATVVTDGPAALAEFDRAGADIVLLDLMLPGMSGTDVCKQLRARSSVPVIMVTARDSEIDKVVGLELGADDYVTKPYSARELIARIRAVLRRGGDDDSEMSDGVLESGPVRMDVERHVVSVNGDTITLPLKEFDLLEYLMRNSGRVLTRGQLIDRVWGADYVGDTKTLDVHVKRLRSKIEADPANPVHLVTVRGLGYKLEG

Data set [1] has as its target RegX3-P (phosphorylated His-RegX3) (UniProt P9WGL9). The experiment in a line: competition with a labelled probe. The note with it: recombinant protein; protein details: His (pET28a); probe letters rebuilt from the primers and the genome.
For data set [2] the target is unchanged. The experiment in a line: EMSA. The note with it: recombinant protein, protein details: His (pET28a), probe letters rebuilt from the primers and the genome. On the technique in general: A gel shift assay detects complexes by their altered migration in electrophoresis.

“CAGCTTTCTTTGCGCTAATTTAGGCGTACTCACAGCATGGGATGACCTGGGCAAATACCTCATCTATCCGCCCGGGATAGCATGCGGCGCAGGCGGCGAATGCGGCGCAGATGAACGCAGAGTTAATTCTCACGCAACGGTCCGATATTG (double strand) [whiB3 promoter -307 to -157, unlabeled competitor]”: the binding result in data set [1] is recorded as “binds”.

As for “CAGCTTTCTTTGCGCTAATTTAGGCGTACTCACAGCATGGGATGACCTGGGCAAATACCTCATCTATCCGCCCGGGATAGCATGCGGCGCAGGCGGCGAATGCGGCGCAGATGAACGCAGAGTTAATTCTCACGCAACGGTCCGATATTG (double strand) [whiB3 promoter -307 to -157 (WT)]”, in data set [2], the binding result is recorded as “binds”.

Values taken from PMC7525159.
